Source: PMC7815794, “Rab1-AMPylation by Legionella DrrA is allosterically activated by Rab1” (Nature Communications, 2021)

How the values were obtained:
[1] = target: DrrA_(16-352)-D82C-D110A-D112A (L. pneumophila, UniProt Q5ZSQ3 16-352, D82C | D110A | D112A); assay: cross-linking
DrrA_(16-352)-L197C = DrrA_(16-352)-L197C (L. pneumophila, UniProt Q5ZSQ3 16-352, L197C); assay: cross-linking

Row | Binder | binding result [1] | binding result (DrrA_(16-352)-L197C)
1 | Rab1b_(3-174)-Q67A-R69BrC6K-His6 (domain or fragment) PEYDYLFKLLLIGDSGVGKSCLLLRFADDTYTESYISTIGVDFKIRTIELDGKTIKLQIWDTAGAEKFRTITSSYYRGAHGIIVVYDVTDQESYANVKQWLQEIDRYASENVNKLLVGNKSDLTTKKVVDNTTAKEFADSLGIPFLETSAKNATNVEQAFMTMAAEIKKRMG | binds | –
2 | Rab1b_(3-174)-Q67A-R69BrC6K-Y77AMP-His6 (domain or fragment, BrC6K at position 69; AMP on Y77 (Y77AMP)) PEYDYLFKLLLIGDSGVGKSCLLLRFADDTYTESYISTIGVDFKIRTIELDGKTIKLQIWDTAGAEKFRTITSSYYRGAHGIIVVYDVTDQESYANVKQWLQEIDRYASENVNKLLVGNKSDLTTKKVVDNTTAKEFADSLGIPFLETSAKNATNVEQAFMTMAAEIKKRMG | binds | –
3 | Rab8a_(6-176) loaded with GppNHp (domain or fragment, also called Rab8a:GppNHp; GTPase domain of Rab8a) DYLFKLLLIGDSGVGKTCVLFRFSEDAFNSTFISTIGIDFKIRTIELDGKRIKLQIWDTAGQERFRTITTAYYRGAMGIMLVYDITNEKSFDNIRNWIRNIEEHASADVEKMILGNKCDVNDKRQVSKERGEKLALDYGIKFMETSAKANINVENAFFTLARDIKAKMDKK | – | binds
